Data: article PMC8571316 (Scientific Reports, 2021)

Molecular target: top four peptide candidates
Test: BLI

“SARS-CoV-2 S1 protein (His-tag, #S1N-C52H3, Acro Biosystems) (domain or fragment)” showed a Kd of 100 to 250 nM.
